A mixed list of measured activities; the numbers were collected in NIAID ChemDB.

Common to all: whole-cell or culture tests; agent: Mycobacterium avium complex

ECn is the concentration giving n% inhibition of infection, replication or growth. An empty or dashed field is not shown. a–b is a range or a potency band. A number after MIC or MFC names an inhibition level or a share of isolates. Neighbouring rows are from separate reports.

smiles	read by	strain or isolate	endpoint	value
NCC[C@H](O)C(=O)N[C@@H]1C[C@H](N)[C@@H](O[C@H]2O[C@H](CN)[C@@H](O)[C@H](O)[C@H]2O)[C@H](O)[C@H]1O[C@H]1O[C@H](CO)[C@@H](O)[C@H](N)[C@H]1O		Strain #3	MIC	2 µg/mL
Cc1ccc(C)[nH]1		103317	MIC	>16 µg/mL
CO[C@@]1(NC(=O)C(C(=O)O)c2ccc(O)cc2)C(=O)N2C(C(=O)O)=C(CSc3nnnn3C)CO[C@@H]21		31 strains	MIC	32 µg/mL
CN(C)S(=O)(=O)n1cnc2c(=S)nc[nH]c21	resazurin		EC50	>12.5 µM
Cc1c(CN2CCN(C)CC2)c(CN2CCN(C)CC2)c(-c2ccc(Cl)cc2)n1Cc1ccccc1		103317	MIC	>64 µg/mL
CO[C@H]1/C=C/O[C@@]2(C)Oc3c(C)c(O)c4c(=O)c(c5oc6cc(N7CCN(C(C)C)CC7)cc(=O)c6nc5c4c3=C2O)NC(=O)/C(C)=C\C=C\[C@H](C)[C@H](O)[C@@H](C)[C@@H](O)[C@@H](C)[C@H](OC(C)=O)[C@@H]1C		31F093T	MIC	0.07 µg/mL
CN(C)[C@@H]1C(=O)C(C(N)=O)=C(O)[C@@]2(O)C(=O)C3=C(O)c4c(O)cccc4[C@@](C)(O)[C@H]3C[C@@H]12		11 strains	MIC90	>128 µg/mL
CO[C@H]1/C=C/O[C@@]2(C)Oc3c(C)c(O)c4c(=O)c(c5oc6cc(N7CCN(CC(C)C)CC7)cc(=O)c6nc5c4c3=C2O)NC(=O)/C(C)=C\C=C\[C@H](C)[C@H](O)[C@@H](C)[C@@H](O)[C@@H](C)[C@H](OC(C)=O)[C@@H]1C		31F093T	MIC	0.07 µg/mL
NCCC[C@H](N)CC(=O)N[C@H]1CNC(=O)[C@H]([C@H]2C[C@H](O)NC(N)=N2)NC(=O)/C(=C/NC(N)=O)NC(=O)[C@H](CO)NC(=O)[C@H](CO)NC1=O		Isolate 53	MIC	25 µg/mL
N[C@@H]1CN(c2c(F)cc3c(=O)c(C(=O)O)cn([C@@H]4C[C@@H]4F)c3c2Cl)CC12CC2			MIC90	8 µg/mL
CC1(C)S[C@@H]2[C@H](NC(=O)[C@H](NC(=O)N3CCNC3=O)c3ccccc3)C(=O)N2[C@H]1C(=O)O		31 strains	MIC	64 µg/mL
NC[C@H]1O[C@H](O[C@H]2[C@H](O)[C@@H](O[C@H]3O[C@H](CO)[C@@H](O)[C@H](N)[C@H]3O)[C@H](N)C[C@@H]2N)[C@H](N)[C@@H](O)[C@@H]1O		Isolate 93	MIC	3.13 µg/mL
CO[C@H]1/C=C/O[C@@]2(C)Oc3c(C)c(O)c4c(O)c(c(/C=N/N5CCN(C)CC5)c(O)c4c3C2=O)NC(=O)/C(C)=C\C=C\[C@H](C)[C@H](O)[C@@H](C)[C@@H](O)[C@@H](C)[C@H](OC(C)=O)[C@@H]1C		CIPT 140310012	MIC	0.1 µg/mL
NCC[C@H](O)C(=O)N[C@@H]1C[C@H](N)[C@@H](O[C@H]2O[C@H](CN)[C@@H](O)[C@H](O)[C@H]2O)[C@H](O)[C@H]1O[C@H]1O[C@H](CO)[C@@H](O)[C@H](N)[C@H]1O		Isolate 49	MIC	50 µg/mL
C[C@H]1COc2c(N3CCN(C)CC3)c(F)cc3c(=O)c(C(=O)O)cn1c23			MIC50	8–32 µg/mL
CO[C@H]1/C=C/O[C@@]2(C)Oc3c(C)c(O)c4c(O)c(c(/C=N/N5CCN(C)CC5)c(O)c4c3C2=O)NC(=O)/C(C)=C\C=C\[C@H](C)[C@H](O)[C@@H](C)[C@@H](O)[C@@H](C)[C@H](OC(C)=O)[C@@H]1C		101	MIC	16 µg/mL
Cc1ccc(C)n1C1CCCCC1		103317	MIC	>16 µg/mL
CO[C@H]1/C=C/O[C@@]2(C)Oc3c(C)c(O)c4c(O)c(c5c(c4c3C2=O)NC2(CCN(CC(C)C)CC2)N=5)=NC(=O)/C(C)=C\C=C\[C@H](C)[C@H](O)[C@@H](C)[C@@H](O)[C@@H](C)[C@H](OC(C)=O)[C@@H]1C		595-5	MIC	0.5 µg/mL
Cc1cc(CN2CCN(C)CC2)c(C)n1C1CCCCC1		103317	MIC	>64 µg/mL
C[C@@H]1CN(c2c(F)c(N)c3c(=O)c(C(=O)O)cn(C4CC4)c3c2F)C[C@H](C)N1	broth dilution	28	MIC	4 µg/mL
CN(C)c1ccc(O)c2c1C[C@H]1C[C@H]3[C@H](N(C)C)C(=O)C(C(N)=O)=C(O)[C@@]3(O)C(=O)C1=C2O		11 strains	MIC50	64 µg/mL
CO[C@H]1/C=C/O[C@@]2(C)Oc3c(C)c(O)c4c(O)c(c5c(c4c3C2=O)NC2(CCN(CC(C)C)CC2)N=5)=NC(=O)/C(C)=C\C=C\[C@H](C)[C@H](O)[C@@H](C)[C@@H](O)[C@@H](C)[C@H](OC(C)=O)[C@@H]1C		50 isolates	MIC50	0.25 µg/mL
Cc1[nH]c(-c2ccc(Cl)cc2)cc1CN1CCN(C)CC1		103317	MIC	>64 µg/mL
CN[C@@H]1[C@H](O[C@H]2[C@H](O[C@H]3[C@H](O)[C@@H](O)[C@H](N=C(N)N)[C@@H](O)[C@@H]3N=C(N)N)O[C@@H](C)[C@]2(O)C=O)O[C@@H](CO)[C@H](O)[C@H]1O		Isolate 53	MIC	6.25 µg/mL
CO[C@H]1/C=C/O[C@@]2(C)Oc3c(C)c(O)c4c(O)c(c5c(c4c3C2=O)NC2(CCN(CC(C)C)CC2)N=5)=NC(=O)/C(C)=C\C=C\[C@H](C)[C@H](O)[C@@H](C)[C@@H](O)[C@@H](C)[C@H](OC(C)=O)[C@@H]1C		20 strains	MIC90	5 µg/mL
CN[C@@H]1[C@@H](O)[C@@H](O[C@@H]2[C@@H](O)[C@H](O[C@H]3O[C@H](CN)CC[C@H]3N)[C@@H](N)C[C@H]2N)OC[C@]1(C)O		31 strains	MIC	8 µg/mL
NC[C@H]1O[C@H](O[C@H]2[C@H](O)[C@@H](O[C@H]3O[C@H](CO)[C@@H](O)[C@H](N)[C@H]3O)[C@H](N)C[C@@H]2N)[C@H](O)[C@@H](O)[C@@H]1O		Isolate C-54	MIC	>400 µg/mL
CO[C@H]1/C=C/O[C@@]2(C)Oc3c(C)c(O)c4c(=O)c(c5oc6cc(N7CCN(CC(C)C)CC7)cc(=O)c6nc5c4c3=C2O)NC(=O)/C(C)=C\C=C\[C@H](C)[C@H](O)[C@@H](C)[C@@H](O)[C@@H](C)[C@H](OC(C)=O)[C@@H]1C		101	MIC	0.12 µg/mL
CC1COc2c(N3CCN(C)CC3)c(F)cc3c(=O)c(C(=O)O)cn1c23			MIC90	16–128 µg/mL
CC(C)N=c1cc2n(-c3ccc(Cl)cc3)c3ccccc3nc-2cc1Nc1ccc(Cl)cc1		Strain 1	MIC	0.25 µg/mL
CO[C@H]1/C=C/O[C@@]2(C)Oc3c(C)c(O)c4c(O)c(c(/C=N/N5CCN6CCCCC6C5)c(O)c4c3C2=O)NC(=O)/C(C)=C\C=C\[C@H](C)[C@H](O)[C@@H](C)[C@@H](O)[C@@H](C)[C@H](OC(C)=O)[C@@H]1C		26 strains	EC50	<0.6 µg/mL
C[C@@H]1CN(c2c(F)c(N)c3c(=O)c(C(=O)O)cn(C4CC4)c3c2F)C[C@H](C)N1			MIC50	2–8 µg/mL
CCN1CCN(C(=O)NC(C(=O)N[C@@H]2C(=O)N3C(C(=O)O)=C(CSc4nnnn4C)CS[C@H]23)c2ccc(O)cc2)C(=O)C1=O		31 strains	MIC	64 µg/mL
CC(=O)NC[C@H]1CN(c2ccc(N3CCOCC3)c(F)c2)C(=O)O1		13 isolates	MIC50	32 µg/mL
NC[C@H]1O[C@H](O[C@H]2[C@H](O)[C@@H](O[C@H]3O[C@H](CO)[C@@H](O)[C@H](N)[C@H]3O)[C@H](N)C[C@@H]2N)[C@H](O)[C@@H](O)[C@@H]1O		Isolate 122	MIC	50 µg/mL
CC1(C)S[C@@H]2[C@H](NC(=O)C(C(=O)O)c3ccccc3)C(=O)N2[C@H]1C(=O)O		31 strains	MIC	128 µg/mL